{
  "source": "paper PMC8092843",
  "about": "(Journal of Virology, 2021)",
  "data": [
    {"molecular_target": "HLA-A*02:01 molecule (UniProt P01899+P04439, D140Y/D185E/D98H/E176V/G131W/I119V/I121R/I166T/N151K/N90K/Q86G/Q94H/R138H/R169H)", "test": "cell-based", "format": "binding, human", "details": "SD", "units": {"EC50": "µM"}, "values": [
      {"smiles": "CC(C)C[C@H](NC(=O)[C@H](Cc1c[nH]c2ccccc12)NC(=O)[C@H](C)NC(=O)[C@H](CC(C)C)NC(=O)[C@@H](N)C(C)C)C(=O)N[C@@H](Cc1ccc(O)cc1)C(=O)N[C@@H](C)C(=O)N[C@@H](C)C(=O)N[C@H](C(=O)O)C(C)C", "note": "[pp1a-3467]", "EC50": "45 ± 10.8"},
      {"smiles": "CC(C)C[C@H](NC(=O)[C@H](CO)NC(=O)[C@@H]1CCCN1C(=O)[C@H](CC(C)C)NC(=O)[C@H](CC(C)C)NC(=O)[C@@H](N)Cc1ccccc1)C(=O)N[C@@H](C)C(=O)N[C@H](C(=O)N[C@H](C(=O)O)C(C)C)[C@@H](C)O", "EC50": "15 ± 4.4"},
      {"smiles": "CC(C)C[C@H](NC(=O)[C@@H](NC(=O)[C@@H](NC(=O)[C@@H](NC(=O)[C@H](Cc1ccccc1)NC(=O)[C@H](CCCNC(=N)N)NC(=O)[C@H](CC(N)=O)NC(=O)[C@H](CC(C)C)NC(=O)[C@@H](N)Cc1ccccc1)[C@@H](C)O)[C@@H](C)O)[C@@H](C)O)C(=O)O", "EC50": "79 ± 9.6"}
    ]}
  ]
}
